Data set [1] has as its system HCV-RNA replication in 1B-4RL cells (HCV-1B-4 strain, Li23-derived). It is filed as cell-based, HCV genotype 1b. Conditions: 1B-4RL vs ORL8. Here is the method:
For N-251, the results at concentrations of up to 1.3 μM are shown.

The test system of data set [2] is HCV-RNA replication in ORL8 cells. Nature of the data set: Effect of antioxidant vitamin E on anti-HCV activity in ORL8 cells (luciferase activity). It is filed as cell-based, HCV genotype 1b. Conditions: vitamin E 10 μM, N-89, N-251 0.5 μM, artemisinin 100 μM, CsA 0.4 μg/mL, IFN-α 1 IU/mL. Here is the method: The effect of addition of vitamin E on the anti-HCV activity of N-89 was examined using ORL8 cells. An experimental scale and schedule are the same as those in Example 1.
N-89 and vitamin E were simultaneously added so that the concentrations of N-89 and vitamin E were set to 0.5 μM and 10 μM, respectively. The luciferase activity was measured 72 hours after the culture.
The effect of addition of vitamin E on the anti-HCV activity of N-251 was examined using ORL8 cells. An experimental scale and schedule are the same as those in Example 1.
N-251 and vitamin E were simultaneously added so that the concentrations of N-251 and vitamin E were set to 0.5 μM and 10 μM, respectively. The luciferase activity was measured 72 hours after the culture.
The effect of addition of vitamin E on the anti-HCV activity of artemisinin was examined using ORL8 cells. An experimental scale and schedule are the same as those in Example 1.
Artemisinin and vitamin E were simultaneously added so that the concentrations of artemisinin and vitamin E were set to 100 μM and 10 μM, respectively. The luciferase activity was measured 72 hours after the culture.

Values joined by “and” are separate entries in the source; they are usually repeats but may differ in a detail not shown here. Identical values can stand only once.

Turning to `C1CCCCCC2(CCCCC1)OOCCCOO2` [N-89, 1,2,6,7-tetraoxaspiro[7,11]nonadecane], in data set [1], the “EC50 fold higher in 1B-4RL cells than in ORL8 cells” value was “about 1.3 fold”. Further, in data set [2], the “luciferase activity with vitamin E divided by luciferase activity without vitamin E” value is recorded as 8.9. The like results for `OCCCCCCC1COOC2(CCCCCCCCCCC2)OOC1` [N-251, 6-(1,2,6,7-tetraoxaspiro[7,11]nonadec-4-yl)] were, in that order, about 2.3 fold and 6.6.

As to `C[C@@H]1CC[C@H]2[C@@H](C)C(=O)O[C@@H]3O[C@@]4(C)CC[C@@H]1[C@]32OO4` [artemisinin, reference compound], the “luciferase activity with vitamin E divided by luciferase activity without vitamin E” value in data set [2] amounted to 2.3. In the case of IFN-α, in data set [2], the “luciferase activity with vitamin E divided by luciferase activity without vitamin E” value turned out to be 4.4. As to vitamin E [reference compound], in data set [2], the “luciferase activity with vitamin E divided by luciferase activity without vitamin E” value is 2.2 and 1.9 and 2.9.
